Nine compounds from patent EP4821928A1, “BICYCLIC HETEROCYCLIC COMPOUND AND FUNGICIDE FOR AGRICULTURAL AND HORTICULTURAL USE CONTAINING SAME AS ACTIVE INGREDIENT” (dated 2026) can be followed below.

In one experiment the test system is Botrytis cinerea. Briefly: Tomato gray mold pot test (Test Example B). The settings on record: for Tomato gray mold pot test (control value): 250 ppm sprayed, 2.5 ml/pot, tomato variety Oogata Fukuju, degree of disease development 2 to 3 days after inoculation.
Another experiment concerns Magnaporthe grisea. Briefly: Rice blast disease pot test (Test Example A). The conditions noted are these: for Rice blast disease pot test (control value): 250 ppm sprayed, 2.5 ml/pot, rice variety Sachikaze, degree of disease development 6 to 8 days after inoculation.
The test system of experiment [1] is Speckled leaf blotch fungus (Septoria tritici). Briefly: Speckled leaf blotch anti-germ test (Test Example F). The conditions noted are these: for Speckled leaf blotch anti-germ test (rate of inhibition): 50 ppm/well, Czapek-dox broth, 25°C for 3 days, absorbance 600 nm.
Experiment [2] relates to Fusarium blight fungus (Fusarium graminearum). In words: Fusarium blight anti-germ test (Test Example D). The conditions noted are these: for Fusarium blight anti-germ test (rate of inhibition): 50 ppm/well, Czapek-dox broth, 25°C for 3 days, absorbance 600 nm.
Experiment [3] has as its system Anthracnose fungus (Glomerella cingulata). Briefly: Anthracnose anti-germ test (Test Example E). The conditions noted are these: for Anthracnose anti-germ test (rate of inhibition): 50 ppm/well, Czapek-dox broth, 25°C for 3 days, absorbance 600 nm.
The test system of experiment [4] is Gray mold fungus (Botrytis cinerea). In words: Gray mold anti-germ test (Test Example C). The settings on record: for Gray mold anti-germ test (rate of inhibition): 50 ppm/well, Czapek-dox broth, 25°C for 3 days, absorbance 600 nm.

With `CCCCC1(C)N=C(c2cnn3c(C)c(C)ccc23)c2ccccc2S1(=O)=O` (stereo not drawn), the “Tomato gray mold pot test (control value)” value (“Tomato gray mold pot test” below) in the experiment with Botrytis cinerea is “H (H represents a control value or rate of inhibition of larger than 50%)”. Also, in the experiment on Magnaporthe grisea, the “Rice blast disease pot test (control value)” value (“Rice blast disease pot test” below) is given as “H (H represents a control value or rate of inhibition of larger than 50%)”. In addition, the “Speckled leaf blotch anti-germ test (rate of inhibition)” value in experiment [1] is on record as “L (L represents a control value or rate of inhibition of 50% or less)”. In addition, the “Fusarium blight anti-germ test (rate of inhibition)” value in experiment [2] is on record as “H (H represents a control value or rate of inhibition of larger than 50%)”. Moreover, the “Anthracnose anti-germ test (rate of inhibition)” value in experiment [3] is reported as “H (H represents a control value or rate of inhibition of larger than 50%)”. Moreover, in experiment [4], the “Gray mold anti-germ test (rate of inhibition)” value was “H (H represents a control value or rate of inhibition of larger than 50%)”.
In the case of `CCC1(C)N=C(n2cnc3c(C)c(C)ccc32)c2cccc(C)c2O1` (stereo not drawn), the “Tomato gray mold pot test” value in the experiment on Botrytis cinerea is recorded as “H (H represents a control value or rate of inhibition of larger than 50%)”. In the experiment with Magnaporthe grisea, the “Rice blast disease pot test” value is listed as “H (H represents a control value or rate of inhibition of larger than 50%)”. Also, in experiment [1], the “Speckled leaf blotch anti-germ test (rate of inhibition)” value is listed as “H (H represents a control value or rate of inhibition of larger than 50%)”. The “Fusarium blight anti-germ test (rate of inhibition)” value in experiment [2] is “H (H represents a control value or rate of inhibition of larger than 50%)”. The “Anthracnose anti-germ test (rate of inhibition)” value in experiment [3] is given as “H (H represents a control value or rate of inhibition of larger than 50%)”. Besides, the “Gray mold anti-germ test (rate of inhibition)” value in experiment [4] is listed as “H (H represents a control value or rate of inhibition of larger than 50%)”.
Take `Cc1ccc2c(ncn2C2=NC(C)(C)Oc3cc(F)ccc32)c1C`: in the experiment with Botrytis cinerea, the “Tomato gray mold pot test” value is reported as “H (H represents a control value or rate of inhibition of larger than 50%)”. The “Rice blast disease pot test” value in the experiment with Magnaporthe grisea is listed as “H (H represents a control value or rate of inhibition of larger than 50%)”. The “Speckled leaf blotch anti-germ test (rate of inhibition)” value in experiment [1] is recorded as “L (L represents a control value or rate of inhibition of 50% or less)”. Besides, in experiment [2], the “Fusarium blight anti-germ test (rate of inhibition)” value was “H (H represents a control value or rate of inhibition of larger than 50%)”. Besides, in experiment [3], the “Anthracnose anti-germ test (rate of inhibition)” value is recorded as “H (H represents a control value or rate of inhibition of larger than 50%)”. For the same compound, the “Gray mold anti-germ test (rate of inhibition)” value in experiment [4] was “H (H represents a control value or rate of inhibition of larger than 50%)”.
On to `Cc1ccc2c(c1)OC1(CCC1)N=C2n1cnc2c(C)c(C)ccc21`, for which, in the experiment on Botrytis cinerea, the “Tomato gray mold pot test” value was “H (H represents a control value or rate of inhibition of larger than 50%)”. For the same compound, in the experiment on Magnaporthe grisea, the “Rice blast disease pot test” value is on record as “H (H represents a control value or rate of inhibition of larger than 50%)”. Also, the “Speckled leaf blotch anti-germ test (rate of inhibition)” value in experiment [1] was “H (H represents a control value or rate of inhibition of larger than 50%)”. The “Fusarium blight anti-germ test (rate of inhibition)” value in experiment [2] is reported as “H (H represents a control value or rate of inhibition of larger than 50%)”. Also, the “Anthracnose anti-germ test (rate of inhibition)” value in experiment [3] was “H (H represents a control value or rate of inhibition of larger than 50%)”. Besides, in experiment [4], the “Gray mold anti-germ test (rate of inhibition)” value is reported as “H (H represents a control value or rate of inhibition of larger than 50%)”.
As for `Cc1ccc2c(C3=NC(C)(C)Oc4c3cccc4C3CC3)cnn2c1C`, in the experiment on Botrytis cinerea, the “Tomato gray mold pot test” value is recorded as “H (H represents a control value or rate of inhibition of larger than 50%)”. In addition, the “Rice blast disease pot test” value in the experiment on Magnaporthe grisea is recorded as “H (H represents a control value or rate of inhibition of larger than 50%)”. For the same compound, the “Speckled leaf blotch anti-germ test (rate of inhibition)” value in experiment [1] is “H (H represents a control value or rate of inhibition of larger than 50%)”. The “Fusarium blight anti-germ test (rate of inhibition)” value in experiment [2] was “H (H represents a control value or rate of inhibition of larger than 50%)”. Further, the “Anthracnose anti-germ test (rate of inhibition)” value in experiment [3] is “H (H represents a control value or rate of inhibition of larger than 50%)”. The “Gray mold anti-germ test (rate of inhibition)” value in experiment [4] was “H (H represents a control value or rate of inhibition of larger than 50%)”.
`Cc1ccc2c(c1C)OC(C)(C)N=C2c1cnn2c(C)c(C)ccc12`: in the experiment with Botrytis cinerea, the “Tomato gray mold pot test” value is listed as “H (H represents a control value or rate of inhibition of larger than 50%)”. Also, the “Rice blast disease pot test” value with Magnaporthe grisea is given as “L (L represents a control value or rate of inhibition of 50% or less)”. Further, the “Speckled leaf blotch anti-germ test (rate of inhibition)” value in experiment [1] is “H (H represents a control value or rate of inhibition of larger than 50%)”. Moreover, the “Fusarium blight anti-germ test (rate of inhibition)” value in experiment [2] is listed as “H (H represents a control value or rate of inhibition of larger than 50%)”. Further, the “Anthracnose anti-germ test (rate of inhibition)” value in experiment [3] was “H (H represents a control value or rate of inhibition of larger than 50%)”. Moreover, the “Gray mold anti-germ test (rate of inhibition)” value in experiment [4] was “H (H represents a control value or rate of inhibition of larger than 50%)”.
With `Cc1c(Cl)ccc2c1ncn2C1=NC(C)(C)Oc2cc(Br)ccc21`, the “Tomato gray mold pot test” value in the experiment on Botrytis cinerea is on record as “L (L represents a control value or rate of inhibition of 50% or less)”. In addition, the “Rice blast disease pot test” value in the experiment with Magnaporthe grisea was “L (L represents a control value or rate of inhibition of 50% or less)”. Further, the “Speckled leaf blotch anti-germ test (rate of inhibition)” value in experiment [1] is reported as “L (L represents a control value or rate of inhibition of 50% or less)”. Also, the “Fusarium blight anti-germ test (rate of inhibition)” value in experiment [2] is on record as “L (L represents a control value or rate of inhibition of 50% or less)”. For the same compound, in experiment [3], the “Anthracnose anti-germ test (rate of inhibition)” value is reported as “L (L represents a control value or rate of inhibition of 50% or less)”. Moreover, the “Gray mold anti-germ test (rate of inhibition)” value in experiment [4] is “L (L represents a control value or rate of inhibition of 50% or less)”.
Take `Cc1ccc2c(c1)OC(C)(CC(C)C)N=C2c1cnn2cc(C)cnc12` (stereo not drawn): the control value result in the experiment with Botrytis cinerea (Test Example B, tomato gray mold pot test) is “H (H represents a control value or rate of inhibition of larger than 50%)”; in the experiment with Magnaporthe grisea (Test Example A, rice blast disease pot test), “H (H represents a control value or rate of inhibition of larger than 50%)”. Besides, the rate of inhibition entry in experiment [1] (Test Example F, speckled leaf blotch anti-germ test) is “H (H represents a control value or rate of inhibition of larger than 50%)”; in experiment [2] (Test Example D, Fusarium blight anti-germ test) it was “H (H represents a control value or rate of inhibition of larger than 50%)”; in experiment [3] (Test Example E, anthracnose anti-germ test) it was “H (H represents a control value or rate of inhibition of larger than 50%)”; in experiment [4] (Test Example C, gray mold anti-germ test), “H (H represents a control value or rate of inhibition of larger than 50%)”.
For `Cc1cccc2c1ncn2C1=NC(C)(C)Sc2ccccc21`, the “Tomato gray mold pot test” value in the experiment on Botrytis cinerea is given as “H (H represents a control value or rate of inhibition of larger than 50%)”. For the same compound, in the experiment on Magnaporthe grisea, the “Rice blast disease pot test” value is recorded as “H (H represents a control value or rate of inhibition of larger than 50%)”. For the same compound, the “Speckled leaf blotch anti-germ test (rate of inhibition)” value in experiment [1] was “H (H represents a control value or rate of inhibition of larger than 50%)”. Besides, the “Fusarium blight anti-germ test (rate of inhibition)” value in experiment [2] is listed as “H (H represents a control value or rate of inhibition of larger than 50%)”. Further, the “Anthracnose anti-germ test (rate of inhibition)” value in experiment [3] is “H (H represents a control value or rate of inhibition of larger than 50%)”. The “Gray mold anti-germ test (rate of inhibition)” value in experiment [4] is on record as “H (H represents a control value or rate of inhibition of larger than 50%)”.
